{"source": "patent US11479582B2", "about": "(KING FAISAL UNIVERSITY, dated 2022)", "binders": {"B1": {"name": "peptide #125 (mutated HR2 39-mer, 'High Affinity') (peptide)", "peptide": "HRLRQIRGIRARVVQIQKEIWRLNEVAKLLNESLIYLQE"}}, "key": {"[1]": {"biological_target": "SARS-CoV-2 spike (S) protein on replication-competent SARS-CoV-2 (SARS-CoV-2, UniProt P0DTC2)", "assay": "cell-based or functional assay"}, "[2]": {"biological_target": "SARS-CoV-2 spike (S) protein, expressed from a synthetic S gene (SARS-CoV-2, UniProt P0DTC2)", "assay": "cell-based or functional assay"}}, "data": [{"binder": "B1", "values": [{"measurement": "IC50, SARS-CoV-2 RNA quantification", "setting": "[1]", "result": 160, "unit": "nM"}, {"measurement": "IC50, SARS-CoV-2 plaques inhibition assay", "setting": "[1]", "result": 460, "unit": "nM"}, {"measurement": "IC50, SARS-CoV-2 Spike-mediated cell-cell fusion", "setting": "[2]", "result": 4400, "unit": "nM"}, {"measurement": "IC50, SARS-CoV-2 pseudovirus infection in Calu-3 cells", "setting": "[2]", "result": 1200, "unit": "nM"}, {"measurement": "IC50, SARS-CoV-2 pseudovirus infection in VeroE6", "setting": "[2]", "result": 2400, "unit": "nM"}, {"measurement": "IC50, TMPRSS2-dependent plasma membrane pathway in VeroE6-TMPRSS2", "setting": "[2]", "result": 1700, "unit": "nM"}]}]}
